Anti-infective test results gathered from many reports (values: NIAID ChemDB through PubChem).

All rows: host cell toxicity; endpoint: CC50

Rows are shuffled and stem from different studies. CCn is the concentration with n% toxicity to the cells. An empty or dashed field is not shown.

structure	cell line	read by	conditions	value
Nc1cc(OCCOCP(=O)(O)O)nc(=O)[nH]1	HepAD38	-	-	>356 µM
O=c1ccn([C@@H]2O[C@H](CO)C[C@@H]2F)c(=O)[nH]1	PBM	-	-	>100 µM
CN1C[C@@H](O)[C@H](O)[C@H]1CO	Karpas 45 cells	-	-	>300 µg/mL
C[C@@H](Cn1cnc2c(N)nc(N)nc21)OCP(=O)(O)O	P3HR-1	-	-	>100 µg/mL
CCCCCCCCCCCCCCCCOP(=O)([O-])OCCC[n+]1ccccc1	MCF	MTT	-	50.4 µM
OC[C@H]1NC[C@H](O)[C@@H](O)[C@@H]1O	Karpas 45 cells	-	-	>500 µg/mL
C=C(C)[C@@H]1CCC2[C@]3(CC[C@]4(C)[C@@H]([C@H](C)CC/C=C(/C)C(=O)O)CC[C@@]24C)C[C@]13CCC(=O)O	HL-60	MTT	-	2.53 µM
COc1cc(/C=C/c2ccc3c(C(=O)O)cc(C(=O)O)c(O)c3n2)cc(O)c1O	HeLaP4	MTT	-	60 µM
O=C(O)C1CSCN1	HeLa	-	-	200 µg/mL
O=c1[nH]cnc2c1ncn2[C@H]1CC[C@@H](CO)O1	CFU-E	-	-	93 µM
Cc1cn([C@H]2C[C@H](N=[N+]=[N-])[C@@H](CO)O2)c(=O)[nH]c1=O	CMBC	-	-	60 µM
CC(=O)c1cc(O)c(O)c(=O)cc1C	HepG2	MTS	3 d	23.5 µM
C=C1C(C(C)C2CC=C(C)C(=O)O2)=CC[C@]2(C)C1C[C@]1(O)C=C3C=CC(=O)OC(C)(C)C3[C@H](O)CC21	BEL-7402	MTT	-	0.92 µM
O=c1[nH]c(=O)n([C@@H]2O[C@@H](CO)C[C@H]2F)cc1Cl	PBM	-	-	>100 µM
Nc1ccn(C[C@@H](CO)OCP(=O)(O)O)c(=O)n1	P3HR-1	-	-	18 µg/mL
CO[C@H]1[C@@H](OC(=O)/C=C/C=C/C=C/C=C/C(=O)O)CC[C@@]2(CO2)[C@@H]1[C@@]1(C)O[C@@H]1CC=C(C)C	HeLa	-	-	20 µg/mL
C=C1C2C[C@]3(O)C=C4C=CC(=O)OC(C)(C)C4[C@H](O)CC3[C@]2(C)CCC1(O)C(C)C1CC=C(C)C(=O)O1	HL-60	MTT	-	24.33 µM
OC1c2ccccc2CCc2ccccc21	HELA-H1	-	-	150 µM
Nc1nc(N)c(C=O)c(OCCOCP(=O)(O)O)n1	HepAD38	-	-	>342 µM
O=C1N[C@H]([C@@H](O)CO)[C@H](O)[C@@H]1O	Karpas 45 cells	-	-	>300 µg/mL
CC(C)C[C@H]1C(=O)N2CCC[C@H]2[C@]2(O)O[C@](NC(=O)[C@@H]3C=C4c5cccc6[nH]c(Br)c(c56)C[C@H]4N(C)C3)(C(C)C)C(=O)N12	n4mBid	luminescence	-	>30 µM
O=c1[nH]c(=O)n([C@@H]2O[C@@H](CO)C[C@H]2F)cc1F	PBM	-	-	>100 µM
OC[C@@H]1NC[C@@H](O)[C@H]1O	Karpas 45 cells	-	-	>130 µg/mL
C[C@]12C=CC(=O)C=C1CC[C@@H]1C2=CC[C@]2(C)[C@@H](C(=O)CN3CCN(c4cc(N5CCCC5)nc(N5CCCC5)n4)CC3)CC[C@@H]12	n4mBid	luminescence	-	>30 µM
Nc1cc(OCCOCP(=O)(O)O)ncn1	HEPAD79	-	-	>402 µM
CN(CC(=O)O)NC(=O)CC(N)CC(O)CN	HeLa	-	-	20 µg/mL
OC[C@@H](O)[C@H]1NC[C@H](O)[C@H]1O	Karpas 45 cells	-	-	>160 µg/mL
C=CCNc1ncnc2c1ncn2CCOCP(=O)(O)O	P3HR-1	-	-	18 µg/mL
C[C@@H]1CC[C@@]2(OC1)O[C@H]1[C@@H](O)[C@H]3[C@@H]4CC[C@H]5C[C@@H](O[C@@H]6O[C@H](CO)[C@H](O[C@@H]7O[C@H](CO)[C@@H](O)[C@H](O[C@@H]8OC[C@@H](O)[C@H](O)[C@H]8O)[C@H]7O[C@@H]7O[C@H](CO)[C@H](O)[C@H](O[C@@H]8O[C@H](CO)[C@@H](O)[C@H](O)[C@H]8O)[C@H]7O)[C@H](O)[C@H]6O)[C@H](O)C[C@]5(C)[C@H]4CC[C@]3(C)[C@H]1[C@@H]2C	HeLa	-	-	0.15 µg/mL
O=c1[nH]c(=O)n(C2OC(CO)CC2F)cc1I	PBM	-	-	>100 µM
CC(C)C[C@H](NC(=O)[C@H](Cc1ccccc1)NC(=O)CNC(=O)CNC(=O)[C@@H](N)Cc1ccc(O)cc1)C(=O)N[C@@H]1[C@@H](O)[C@H](O)[C@@H](CO)O[C@H]1O	PBL	-	-	>140 µM
c1ccc2c(c1)oc1ccccc12	HELA-H1	-	-	>200 µM
CN1C[C@@H](O)[C@@H](O)[C@H](O)[C@H]1CO	Karpas 45 cells	-	-	>300 µg/mL
CC(C)C[C@H](NC(=O)[C@H](Cc1ccccc1)NC(=O)CNC(=O)CNC(=O)[C@@H](N)Cc1ccc(O)cc1)C(=O)O	PBL	-	-	>140 µM
OC[C@H]1NC[C@@H](O)[C@@H]1O	Karpas 45 cells	-	-	>170 µg/mL
Nc1nc(OCCOCP(=O)(O)O)cc(=O)[nH]1	HEPAD79	-	-	>329 µM
CC1=CCC(C(C)C2=C(C)C3C[C@]4(O)C=C5C=CC(=O)OC(C)(C)C5[C@H](O)CC4[C@]3(C)C=C2)OC1=O	BEL-7402	MTT	-	16.98 µM
CCN1C[C@H](O)[C@@H](O)[C@H](O)[C@H]1CO	Karpas 45 cells	-	-	>500 µg/mL
CC[C@@]1(O)C(=O)OCc2c1cc1n(c2=O)Cc2cc3ccccc3nc2-1	MDA-MB-231	MTT	-	0.759 µg/mL
COc1ccc(NC(=O)c2ccc(-c3ccc(-c4noc(C)n4)cc3C)cc2)cc1N1CCN(C)CC1	n4mBid	luminescence	-	7 µM
CC(C)C[C@H](NC(=O)[C@H](Cc1ccccc1)NC(=O)CNC(=O)CNC(=O)[C@@H](N)Cc1ccc(O)cc1)C(=O)OC[C@H]1O[C@@H](OCc2ccccc2)[C@H](O)[C@@H](O)[C@@H]1O	PBL	-	-	>140 µM
O=P(O)(O)COCCn1cnc2c(N3CCCC3)ncnc21	P3HR-1	-	-	>100 µg/mL
OC[C@H]1NCC[C@@H](O)[C@@H]1O	Karpas 45 cells	-	-	>180 µg/mL
CNc1ncnc2c1ncn2[C@@H]1O[C@@H](CO)C[C@H]1F	PBM	-	-	>100 µM
CC(=O)n1cc(CCN)c2cc(O)ccc21	n4mBid	luminescence	-	>30 µM
COC1=CC(=O)C[C@@H](C)[C@]12Oc1c(Cl)c(OC)cc(OC)c1C2=O	HeLa	-	-	75 µg/mL
CO[C@@H]1[C@H](O)[C@@H](CO)O[C@H]1n1ccc(N)nc1=O	HB110A	MTS	-	>100 µM
CN1[C@@H]2CC[C@H]1CC(OC(c1ccccc1)c1ccccc1)C2	n4mBid	luminescence	-	40 µM

4 of the rows above, restated:

structure	cell line	read by	conditions	value
OC[C@@H]1NC[C@@H](O)[C@H]1O	Karpas 45 cells	-	-	>130 µg/mL
COc1ccc(NC(=O)c2ccc(-c3ccc(-c4noc(C)n4)cc3C)cc2)cc1N1CCN(C)CC1	n4mBid	luminescence	-	7 µM
CC(=O)c1cc(O)c(O)c(=O)cc1C	HepG2	MTS	3 d	23.5 µM
CC1=CCC(C(C)C2=C(C)C3C[C@]4(O)C=C5C=CC(=O)OC(C)(C)C5[C@H](O)CC4[C@]3(C)C=C2)OC1=O	BEL-7402	MTT	-	16.98 µM